Pooled drug test results. Numbers come from NIAID ChemDB, via PubChem.

Shared fields: whole-cell or culture tests; agent: Aspergillus niger

An empty or dashed field is not shown. a–b is a range or a potency band. A number after MIC or MFC names an inhibition level or a share of isolates. Lines come from different laboratories, so protocols vary.

structure | endpoint | method | strain | value
COc1ccc(-c2cc(-c3ccc4oc(=O)c(-c5ccccc5)c(C)c4c3)nc3c2oc2ccccc23)cc1 | MIC | broth dilution / turbidity | MTCC 282 | 500 µg/mL
CCC(C)CC(C)/C=C(\C)C1OC(c2cc(C3(O)CCC(=O)CC3O)cn(C)c2=O)CCC1C | MIC | - | - | 10 µg/mL
Cc1ccc(N2NOC(=O)C2S(=O)(=O)Nc2nc(-c3ccc(F)cc3F)cs2)cc1 | MIC | broth dilution | MTCC 282 | 200 µg/mL
C[C@H]1[C@H](O)[C@@H](C)/C=C/C=C/C=C/C=C/C=C/C=C/C=C/[C@H](O[C@@H]2O[C@H](C)[C@@H](O)[C@H](N)[C@@H]2O)C[C@@H]2O[C@](O)(C[C@@H](O)C[C@@H](O)CC[C@H](O)[C@@H](O)C[C@@H](O)CC(=O)O[C@H]1C)C[C@H](O)[C@H]2C(=O)O | MIC100 | broth dilution | ATCC 9029 | 0.5 µg/mL
COc1ccc(-c2cc(-c3ccc4oc(=O)c(-c5ccccc5)c(C)c4c3)nc3c2Cc2ccccc2-3)cc1OC | MIC | broth dilution / turbidity | MTCC 282 | >1000 µg/mL
C[N+](C)(C)CCn1[se]c2ccccc2c1=O | MIC | agar | - | >512 µg/mL
COc1cccc(N=C(C)c2cc(C(C)=Nc3cccc(OC)c3)c(O)cc2O)c1 | MIC | broth dilution | MTCC 282 | 250 µg/mL
N#[N+]c1nc(-c2ccccc2Cl)[nH]c1C(=O)N1CCCC1 | MIC | - | L32 | 50 µg/mL
FC(F)(F)c1cccc([Se][Se]c2cccc(C(F)(F)F)c2)c1 | MFC | broth dilution | - | >64 µg/mL
Cc1ccc(N2NOC(=O)C2S(=O)(=O)Nc2nc(-c3c(Cl)cccc3Cl)cs2)cc1 | MIC | broth dilution | MTCC 282 | 250 µg/mL
COc1ccc(/C=N/NC(=S)Nc2ccc(C(=O)O)cc2)cc1 | MIC | agar diffusion | - | 2.96 µM
CC(=O)N1CCN(c2ccc(OC[C@H]3CO[C@](Cn4ccnc4)(c4ccc(Cl)cc4Cl)O3)cc2)CC1 | MIC | broth dilution | ATCC 6275 | >150 µg/mL
CN(C)C1=NC(=O)/C(=C/c2ccc(Cl)cc2)S1 | MIC100 | broth dilution | ATCC 9029 | >250 µg/mL
COc1ccc2nc(NS(=O)(=O)C3C(=O)ONN3c3ccc(C)cc3)sc2c1 | MIC | broth dilution | MTCC 282 | 1000 µg/mL
N#[N+]c1nc(-c2cccc(F)c2)[nH]c1C(=O)N1CCCC1 | MIC | - | L32 | 100 µg/mL
CN(C)C1=NC(=O)/C(=C/c2ccccc2)S1 | MIC100 | broth dilution | ATCC 9029 | >250 µg/mL
O=C1C(c2ccc(Cl)cc2)=[N+]([O-])c2cc[n+]([O-])cc21 | MIC | - | - | 31.25 µg/mL
CCOc1ccc2[nH]c3c(c2c1)C1[C@](C)(C(=O)OC)CCC[C@]1(C)c1ccc(C(C)C)cc1-3 | MIC | - | CGMCC3.316 | >100 µg/mL
Cc1ccc(/C=N/NC(=S)Nc2ccc(C(=O)O)cc2)cc1 | MIC | agar diffusion | - | 1.59 µM
O=C1C(c2ccc(Cl)cc2)=[N+]([O-])c2cccnc21 | MFC | - | - | >500 µg/mL
COC(=O)[C@]1(C)CCC[C@]2(C)c3ccc(C(C)C)cc3C(=O)C[C@@H]12 | MIC | - | CGMCC3.316 | >100 µg/mL
COc1ccc2c(c1)C(=O)C(c1cccnc1)=[N+]2[O-] | MFC | - | - | 250 µg/mL
O=C(O)c1ccc(NC(=S)N=Nc2c(O)[nH]c3ccccc23)cc1 | MIC | agar diffusion | - | 2.05 µM
COc1ccc([Se][Se]c2ccc(OC)cc2)cc1 | MIC | broth dilution | - | >64 µg/mL
Oc1ccc(Cl)c2cccnc12 | MIC | - | ATCC 1004 | 3 µg/mL
N#CC(O)c1ccccc1 | MIC | broth dilution | A420 | 750 µg/mL
O=C1C=C(N2CCOCC2)C(=O)c2ccccc21 | MIC100 | broth dilution | MTCC 404 | 62.5 µg/mL
O=C/C=C/c1ccccc1 | MIC | broth dilution | IOA-3 | 160 µg/mL
Cc1ccc(-c2cc(-c3ccc4oc(=O)c(-c5ccccc5)c(C)c4c3)nc3c2CCc2ccccc2-3)cc1 | MIC | broth dilution / turbidity | MTCC 282 | >1000 µg/mL
Oc1cc(Br)cc2cccnc12 | MIC | - | ATCC 1004 | <1 µg/mL
CC(=Nc1cccc(Br)c1)c1cc(C(C)=Nc2cccc(Br)c2)c(O)cc1O | MIC | broth dilution | MTCC 282 | 100 µg/mL
Cn1c(=O)cc(Oc2nc(Nc3ccc(C#N)cc3)nc(Nc3ccccn3)n2)c2ccccc21 | MIC | agar | MTCC 2825 | 500 µg/mL
O=c1c2ccccc2[se]n1C(CO)CO | MIC | agar | - | >512 µg/mL
CC[C@@H]([C@H](C)O)n1ncn(-c2ccc(N3CCN(c4ccc(OC[C@@H]5CO[C@@](Cn6cncn6)(c6ccc(F)cc6F)C5)cc4)CC3)cc2)c1=O | MIC | - | - | 0.125–2 µg/mL
Oc1cccc2cc(Br)cnc12 | MIC | - | ATCC 1004 | 9 µg/mL
O=C1C(c2ccccn2)=[N+]([O-])c2ccccc21 | MFC | - | - | 62.5 µg/mL
CCCN(CCC)Cc1cccc(/C=N/NC(=O)c2ccncc2)c1N | MIC | - | MTCC 8184 | 12.5 µg/mL
O=C/C=C/c1ccccc1 | MFC | broth dilution | IOA-3 | 160 µg/mL
Oc1cccc2cccnc12 | MIC | - | ATCC 1004 | 8 µg/mL
O=c1c2ccccc2[se]n1C1C2CC3CC(C2)CC1C3 | MIC | agar | - | 10 µg/mL
Cc1c(-c2ccccc2)c(=O)oc2ccc(-c3cc(-c4ccccc4)c4c(n3)-c3ccccc3C4)cc12 | MIC | broth dilution / turbidity | MTCC 282 | >1000 µg/mL
CC(C)c1nc([N+]#N)c(C(=O)N2CCCC2)[nH]1 | MIC | - | L32 | >200 µg/mL
CCCCCN(CCCCC)Cc1cccc(/C=N/NC(=O)c2ccncc2)c1N | MIC | - | MTCC 8184 | 3.12 µg/mL
CNC1=CC(=O)c2ccccc2C1=O | MIC100 | broth dilution | ATCC 404 | 62.5 µg/mL
COC(=O)[C@]1(C)CCC[C@]2(C)c3ccc(C(C)C)cc3CCC12 | MIC | - | CGMCC3.316 | >100 µg/mL
O=NC(=O)c1ccc(NC(=S)NNc2c(O)[nH]c3ccccc23)cc1 | MIC | agar diffusion | - | 0.82 µM
Oc1ccc(Br)c2cccnc12 | MIC | - | ATCC 1004 | 3 µg/mL
CCc1nc([N+]#N)c(C(=O)N2CCCC2)[nH]1 | MIC | - | L32 | 200 µg/mL
CN(C)Cc1cccc(/C=N/NC(=O)c2ccncc2)c1N | MIC | - | MTCC 8184 | 50 µg/mL
Nc1[nH]c(=O)ncc1F | MIC90 | - | - | >64 µg/mL
COc1ccc(-c2cc(-c3ccc4oc(=O)c(-c5ccccc5)c(C)c4c3)nc3c2CCc2ccccc2-3)cc1 | MIC | broth dilution / turbidity | MTCC 282 | 500 µg/mL
COC(=O)[C@]1(C)CCC[C@]2(C)c3ccc(C(C)C)cc3-c3[nH]c4c(F)cccc4c3C12 | MIC | - | CGMCC3.316 | 62.5 µg/mL
CCCCCOc1ccc(-c2ccc(-c3ccc(C(=O)N[C@H]4C[C@@H](O)[C@@H](O)NC(=O)[C@@H]5[C@@H](O)[C@@H](C)CN5C(=O)[C@H]([C@H](C)O)NC(=O)[C@H]([C@H](O)[C@@H](O)c5ccc(O)cc5)NC(=O)[C@@H]5C[C@@H](O)CN5C(=O)[C@H]([C@H](C)O)NC4=O)cc3)cc2)cc1 | MIC90 | - | - | 0.015 µg/mL
Cn1c(=O)cc(Oc2nc(Nc3ccc(C#N)cc3)nc(Nc3nc4ccc(Cl)cc4s3)n2)c2ccccc21 | MIC | agar | MTCC 2825 | 100 µg/mL
CCC(C)n1ncn(-c2ccc(N3CCN(c4ccc(OC[C@H]5CO[C@](Cn6cncn6)(c6ccc(Cl)cc6Cl)O5)cc4)CC3)cc2)c1=O | MIC | agar diffusion | - | 10 µg/mL
CCCCCOc1ccc(-c2cc(-c3ccc(C(=O)N[C@H]4C[C@@H](O)[C@@H](O)NC(=O)[C@@H]5[C@@H](O)[C@@H](C)CN5C(=O)[C@H]([C@H](O)CC(N)=O)NC(=O)[C@H]([C@H](O)[C@@H](O)c5ccc(O)c(OS(=O)(=O)O)c5)NC(=O)[C@@H]5C[C@@H](O)CN5C(=O)[C@H]([C@@H](C)O)NC4=O)cc3)no2)cc1 | MIC50 | - | - | 0.015 µg/mL
Cn1[se]c2ccccc2c1=O | MIC | agar | - | 27 µg/mL
O=C1C(c2ccc(Cl)cc2)=[N+]([O-])c2cc3c(cc21)OCO3 | MIC | - | - | >125 µg/mL
C[C@@H]1[C@H](O)[C@@H](C)/C=C/C=C/CC/C=C/C=C/C=C/C=C/C(O[C@H]2O[C@H](C)[C@@H](O)[C@H](N)[C@@H]2O)CC2O[C@](O)(CC(O)C(O)CCC(O)CC(O)CC(O)CC(=O)O[C@H]1C)CC(O)C2C(=O)O | MIC | - | MTCC 8184 | 0.78 µg/mL
Cn1c(=O)cc(Oc2nc(Nc3ccc(C#N)cc3)nc(Nc3nc4ccc(Br)cc4s3)n2)c2ccccc21 | MIC | agar | MTCC 2825 | 50 µg/mL
O=C(O)c1ccc(NC(=S)N/N=C/c2ccc(Cl)cc2)cc1 | MIC | agar diffusion | - | 1.38 µM
CCCCc1nc([N+]#N)c(C(=O)N2CCCC2)[nH]1 | MIC | - | L32 | >200 µg/mL
Nc1ccccc1/C=N/NC(=O)c1ccncc1 | MIC | - | MTCC 8184 | 12.5 µg/mL
Cc1ccc(N2NOC(=O)C2S(=O)(=O)Nc2nc(-c3ccc(Br)cc3)cs2)cc1 | MIC | broth dilution | MTCC 282 | 250 µg/mL
[Al]#[P] | MIC | agar | - | 3 µg/mL
C[C@@H]1[C@H](O)[C@@H](C)/C=C/C=C/CC/C=C/C=C/C=C/C=C/C(O[C@H]2O[C@H](C)[C@@H](O)[C@H](N)[C@@H]2O)CC2O[C@](O)(CC(O)C(O)CCC(O)CC(O)CC(O)CC(=O)O[C@H]1C)CC(O)C2C(=O)O | MIC100 | broth dilution | ATCC 16404 | 0.78 µg/mL
COc1ccc(/C=N/NC(=S)Nc2ccc(C(=O)NO)cc2)cc1 | MIC | agar diffusion | - | 2.88 µM
Cc1ccc(N2NOC(=O)C2S(=O)(=O)Nc2nc3cc(C)ccc3s2)cc1 | MIC | broth dilution | MTCC 282 | 500 µg/mL
C[C@@H]1[C@H](O)[C@@H](C)/C=C/C=C/CC/C=C/C=C/C=C/C=C/C(O[C@H]2O[C@H](C)[C@@H](O)[C@H](N)[C@@H]2O)CC2O[C@](O)(CC(O)C(O)CCC(O)CC(O)CC(O)CC(=O)O[C@H]1C)CC(O)C2C(=O)O | MIC100 | broth dilution | MTCC 404 | 62.5 µg/mL
Cc1ccc(/C=N/NC(=S)Nc2ccc(C(=O)NO)cc2)cc1 | MIC | agar diffusion | - | 1.11 µM
COC(=O)[C@]1(C)CCC[C@]2(C)c3ccc(C(C)C)cc3-c3[nH]c4ccc(Cl)cc4c3C12 | MIC | - | CGMCC3.316 | >100 µg/mL
Oc1cccc2c(Br)ccnc12 | MIC | - | ATCC 1004 | 3 µg/mL
CCOC(=O)CC#N | MIC | broth dilution | - | 16000 µM
OC(Cn1cncn1)(Cn1cncn1)c1ccc(F)cc1F | MFC100 | broth dilution | CCAM 080002 | 2.5 µg/mL
Cc1ccc(N2NOC(=O)C2S(=O)(=O)Nc2nc3cc(F)ccc3s2)cc1 | MIC | broth dilution | MTCC 282 | 1000 µg/mL
OC(Cn1cncn1)(Cn1cncn1)c1ccc(F)cc1F | MIC | broth dilution | MTCC 1344 | 100 µg/mL
Cc1c(-c2ccccc2)c(=O)oc2ccc(-c3cc(-c4ccc(Cl)cc4)c4oc5ccccc5c4n3)cc12 | MIC | broth dilution / turbidity | MTCC 282 | >1000 µg/mL
CN(C)c1ccc(/C=N/NC(=S)Nc2ccc(C(=O)O)cc2)cc1 | MIC | agar diffusion | - | 1.68 µM
Cc1ccc(N2NOC(=O)C2S(=O)(=O)Nc2nc(-c3ccc([N+](=O)[O-])cc3)cs2)cc1 | MIC | broth dilution | MTCC 282 | 250 µg/mL
COc1ccc2c(c1)C(=O)C(c1ccc(-c3ccc(Cl)cc3)cc1)=[N+]2[O-] | MFC | - | - | >250 µg/mL
Nc1c(/C=N/NC(=O)c2ccncc2)cccc1CN1CCNCC1 | MIC | - | MTCC 8184 | 3.12 µg/mL
N#[N+]c1nc(-c2ccc(Cl)cc2Cl)[nH]c1C(=O)N1CCCC1 | MIC | - | L32 | 100 µg/mL

For reference, 8 entries again:

| structure | endpoint | method | strain | value |
|---|---|---|---|---|
| CN(C)C1=NC(=O)/C(=C/c2ccccc2)S1 | MIC100 | broth dilution | ATCC 9029 | >250 µg/mL |
| O=C1C(c2ccc(Cl)cc2)=[N+]([O-])c2cccnc21 | MFC | - | - | >500 µg/mL |
| CCCCCOc1ccc(-c2ccc(-c3ccc(C(=O)N[C@H]4C[C@@H](O)[C@@H](O)NC(=O)[C@@H]5[C@@H](O)[C@@H](C)CN5C(=O)[C@H]([C@H](C)O)NC(=O)[C@H]([C@H](O)[C@@H](O)c5ccc(O)cc5)NC(=O)[C@@H]5C[C@@H](O)CN5C(=O)[C@H]([C@H](C)O)NC4=O)cc3)cc2)cc1 | MIC90 | - | - | 0.015 µg/mL |
| O=C(O)c1ccc(NC(=S)N=Nc2c(O)[nH]c3ccccc23)cc1 | MIC | agar diffusion | - | 2.05 µM |
| COc1ccc2nc(NS(=O)(=O)C3C(=O)ONN3c3ccc(C)cc3)sc2c1 | MIC | broth dilution | MTCC 282 | 1000 µg/mL |
| Cn1c(=O)cc(Oc2nc(Nc3ccc(C#N)cc3)nc(Nc3nc4ccc(Cl)cc4s3)n2)c2ccccc21 | MIC | agar | MTCC 2825 | 100 µg/mL |
| CCCCCOc1ccc(-c2cc(-c3ccc(C(=O)N[C@H]4C[C@@H](O)[C@@H](O)NC(=O)[C@@H]5[C@@H](O)[C@@H](C)CN5C(=O)[C@H]([C@H](O)CC(N)=O)NC(=O)[C@H]([C@H](O)[C@@H](O)c5ccc(O)c(OS(=O)(=O)O)c5)NC(=O)[C@@H]5C[C@@H](O)CN5C(=O)[C@H]([C@@H](C)O)NC4=O)cc3)no2)cc1 | MIC50 | - | - | 0.015 µg/mL |
| COc1cccc(N=C(C)c2cc(C(C)=Nc3cccc(OC)c3)c(O)cc2O)c1 | MIC | broth dilution | MTCC 282 | 250 µg/mL |